A mixed list of measured activities; the numbers were collected in NIAID ChemDB.

Shared fields: whole-cell or culture tests; organism: HIV-1; read by: MTT; measure: inhibition

Percent inhibition refers to the dose given; in toxicity tests it is the harm to the cells. Blank or dashed fields: not listed here. Conditions beyond the fields shown may differ between rows.

| structure | tested at | strain or isolate | mutations | cells | result |
|---|---|---|---|---|---|
| Cc1c(C(C)c2c(Cl)cccc2Cl)nc(SCc2ccc(C#N)cc2)[nH]c1=O | 11.63 µM | NL4-3 | Y181C | MT-4 | 39% |
| COC(=O)C(Cc1c[nH]c2ccc(O)cc12)N=C=S | 1 µM | NL4-3 |  | CEM-GFP | 61.81% |
| Cc1ccc(CNC(=O)c2ccc3nc(-c4ccccn4)n(C)c(=O)c3c2O)cc1 | 10 µM |  |  | TZM-bl | >0% |
| CC(C)Nc1cccnc1N1CCN(C(=O)c2cc3cc(N=CN(C)C)ccc3[nH]2)CC1 | 1 µM | Seropositive clinical isolate D |  | PBMC | 100% |
| COC(=O)C(Cc1ccc(O)cc1)N=C=S | 1 µg/mL | NL4-3 |  | CEM-GFP | 55.37% |
| O=C1CSC(c2c(F)cccc2Cl)N1n1cnnc1 | 5 µg/mL | NL4-3 |  | TZM-bl | 12.63% |
| CCc1c(Cc2c(Cl)cccc2Cl)nc(SC/C=C/c2ccc(C#N)cc2)[nH]c1=O | 54.82 µM | NL4-3 | Y181C | MT-4 | 41% |
| Cc1cc(=O)c2ccc(N=C=S)cc2o1 | 1 µM | NL4-3 |  | CEM-GFP | 93.87% |
| COc1c(C(=O)NCc2ccc(C)cc2)ccc2nc(Cc3ccc(F)cc3)n(C)c(=O)c12 | 10 µM |  |  | TZM-bl | >0% |
| O=C1CSC(c2c(Cl)ncnc2Cl)N1n1cnnc1 | 5 µg/mL | NL4-3 |  | TZM-bl | 27.27% |
| COC(=O)C(Cc1ccccc1)N=C=S | 0.5 µg/mL | NL4-3 |  | CEM-GFP | 66.83% |
| O=C1CSC(c2c(Cl)cncc2Cl)N1n1cnnc1 | 5 µg/mL | NL4-3 |  | TZM-bl | 26.58% |
| Cc1ccc(CNC(=O)c2ccc3nc(-c4ccco4)n(C)c(=O)c3c2O)cc1 | 10 µM |  |  | TZM-bl | >0% |
| COc1ccc(C#CCSc2nc(Cc3c(Cl)cccc3Cl)c(C)c(=O)[nH]2)cc1 | 56.18 µM | NL4-3 | Y181C | MT-4 | 40% |
| O=C1CSC(c2c(Cl)ncnc2Cl)N1c1ncccn1 | 5 µg/mL | NL4-3 |  | TZM-bl | <5% |

Again, the opening 2 rows:

structure	tested at	strain or isolate	mutations	cells	result
Cc1c(C(C)c2c(Cl)cccc2Cl)nc(SCc2ccc(C#N)cc2)[nH]c1=O	11.63 µM	NL4-3	Y181C	MT-4	39%
COC(=O)C(Cc1c[nH]c2ccc(O)cc12)N=C=S	1 µM	NL4-3		CEM-GFP	61.81%